Data reported in paper PMC9400459 (Science (New York, N.y.), 2022).

Target: WIV-1 receptor binding domain (Bat SARS-like coronavirus WIV1, UniProt U5WI05, strain)
Assay: ELISA; mAb on sarbecovirus RBDs; EC50 of at least two independent experiments
Conditions: both partners purified

B1: S2K146 human monoclonal antibody (antibody, V domains shown)
VH: QVQLVESGGVVVQPGGSLRLSCAASGFTFHDHTMHWVRQAPGKGLEWVSLITWNGGTIHYSDSVKGRFTISRDNSKNSLYLQMNSLRTEDTALYYCAKDLGRGGWYLPSDAWGQGTLVTVSS
VL: not shown
B1: binds.
